Data source: PubChem BioAssay AID624099 (ICCB-Longwood, 2012)
Aim: 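Human genes that papillomavirus E2 requires to repress the HPV18 LCR promoter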 (primary screen). Cells: human C33A cervical carcinoma cells (HPV-negative) stably expressing BPV1 E2 and an HPV18 LCR luciferase reporter. Reagents: siRNA pool against human genes, 40 nM. Time to read-out: 72 h. Detection: 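HPV18 LCR reporter light per well, converted to plate-wise z-scores that exclude control wells, and averaged over triplicate plates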. Scale: mean z-score and z-score: higher = stronger reporter signal, weaker E2 silencing. Hit rule: 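Mean z ≥ 2 together with z ≥ 2 in two or more of the three replicates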.
In all, the deposit lists about 21,000 reagents; this is a part drawn at random. 497 of them (2.4%) count as active. 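Higher z means weaker E2 silencing; only reporter increases were scored, and knock-downs that hurt cell survival may mask genuine repressor factors.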 Reagent sequences are not shown.

NAP1L1 gave mean z-score 0.13; z-score, replicate A = 0.25; z-score, replicate B = 0.14; z-score, replicate C = 0; inactive. Against EYA4 the deposit lists mean z-score 1.07; z-score, replicate A = 1.01; z-score, replicate B = 1.06; z-score, replicate C = 1.13; inactive. Against SYTL4 the deposit lists mean z-score -0.14; z-score, replicate A = -0.22; z-score, replicate B = -0.16; z-score, replicate C = -0.05; inactive. For MAP3K7, the values are mean z-score 0.37; z-score, replicate A = 0.14; z-score, replicate B = 0.33; z-score, replicate C = 0.64; inactive. Knock-down of CTIF resulted in: mean z-score -0.21; z-score, replicate A = 0.01; z-score, replicate B = -0.06; z-score, replicate C = -0.56; inactive. ZNF253 gave mean z-score -0.19; z-score, replicate A = -0.38; z-score, replicate B = 0.04; z-score, replicate C = -0.25; inactive.

GOLGA1 scored mean z-score 0.33; z-score, replicate A = 0.27; z-score, replicate B = 0.39; z-score, replicate C = 0.32; inactive. After knock-down of VSX2, the record shows mean z-score 0.02; z-score, replicate A = -0.02; z-score, replicate B = 0.1; z-score, replicate C = -0.03; inactive. Silencing of OMD gave: mean z-score 0.79; z-score, replicate A = 1.06; z-score, replicate B = 0.65; z-score, replicate C = 0.66; inactive. Against LHX6, the values are mean z-score 1.04; z-score, replicate A = 0.83; z-score, replicate B = 0.93; z-score, replicate C = 1.35; inactive. Against PSMD13, the entry reads mean z-score -1.23; z-score, replicate A = -1.3; z-score, replicate B = -1.22; z-score, replicate C = -1.18; inactive. After knock-down of HHAT, the record shows mean z-score -1.14; z-score, replicate A = -1.2; z-score, replicate B = -1.18; z-score, replicate C = -1.04; inactive.

Sorted by “z-score, replicate C” (low to high): some entries from above
SYTL4 → mean z-score = -0.14; z-score, replicate A = -0.22; z-score, replicate B = -0.16; z-score, replicate C = -0.05; activity call = inactive
MAP3K7 → mean z-score = 0.37; z-score, replicate A = 0.14; z-score, replicate B = 0.33; z-score, replicate C = 0.64; activity call = inactive

Further results follow.
Knock-down of RBM48 came out at: mean z-score -0.52; z-score, replicate A = -0.61; z-score, replicate B = -0.21; z-score, replicate C = -0.74; inactive. After knock-down of RNF13 the results were mean z-score -0.36; z-score, replicate A = -0.63; z-score, replicate B = -0.43; z-score, replicate C = -0.02; inactive. Depletion of ST6GALNAC4 came out at: mean z-score -0.64; z-score, replicate A = -0.63; z-score, replicate B = -0.7; z-score, replicate C = -0.59; inactive. With knock-down of BTK the results were mean z-score -0.28; z-score, replicate A = -0.26; z-score, replicate B = -0.06; z-score, replicate C = -0.53; inactive. For LRIG1 the deposit lists mean z-score -1.05; z-score, replicate A = -1.06; z-score, replicate B = -1.32; z-score, replicate C = -0.76; inactive. Knock-down of NUDT16L2P resulted in: mean z-score -0.47; z-score, replicate A = 0.19; z-score, replicate B = -1.07; z-score, replicate C = -0.54; inactive.

Knock-down of DZIP1L came out at: mean z-score -1.41; z-score, replicate A = -1.37; z-score, replicate B = -1.5; z-score, replicate C = -1.35; inactive. After knock-down of SHQ1 the results were mean z-score 0.65; z-score, replicate A = 0.34; z-score, replicate B = 0.42; z-score, replicate C = 1.21; inactive. RINT1 gave mean z-score 0.81; z-score, replicate A = 1.02; z-score, replicate B = 0.52; z-score, replicate C = 0.91; inactive.
